Results on one sequence are retold here after article PMC3931707, “Distinct Structural Features of the Peroxide Response Regulator from Group A Streptococcus Drive DNA Binding”.

For at least one entry, the source does not settle the construct or the ends of the probe. Tags and fusion partners may be left off the protein sequences shown.

For the series, the target named is T1, PerR WT (Streptococcus pyogenes (GAS) serotype M1 A20) (UniProt Q9A1M6).
T1 sequence (looked up, limits assumed): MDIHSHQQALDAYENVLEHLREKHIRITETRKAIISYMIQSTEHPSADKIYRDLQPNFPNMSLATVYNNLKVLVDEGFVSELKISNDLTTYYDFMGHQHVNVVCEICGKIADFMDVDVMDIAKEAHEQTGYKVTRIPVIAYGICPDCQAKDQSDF
The series is described as follows: EMSA. The note with it: EMSA: 20 mM Tris pH 8.0, 50 mM KCl, 5% glycerol, 50 ug/ml BSA, 15 min at 25 C; 6% native PAGE in Tris-borate, ethidium bromide; recombinant protein; protein details: C-terminal 6xHis (pET-21b NdeI/XhoI); probe letters rebuilt from the primers and the genome. Background: A gel shift assay detects complexes by their altered migration in electrophoresis.

As for “GGGGTACCCGAGTGTGTTTGTCATAATAACATCTCCTTACTTTTCAGCTTAAAGGGCAAGAATGGAGAGGGAACTAACCCTAACGTGATAAACATAAGAAAGGGTTAAGGACCTAATCCTATTCGACAATAACGGAATAATCCTAATTGGATGATTAGACACTTAATTAGAATCATTATCGTTTTATATCTATATTCTACAATGATTAAGGAAAGATTGCAAGTATTTGATTTCTTTTCGAATAAATAAGTATGATAGCTTTTTTTAGTATATGTTCGGGCATCTTATTGACCCATCTTTTTTACTGTTTACTACTTTATTTTCCTGATAATGGTCAAGAGCAGCTAAGTAAACAGACTGTCATTGTTTGTGACCAACTAACTTTTGCCAAACGCGTTTTTCGGCAGTTCCAAAACCATTTTATAACGAGCTCCGG (double strand) [dpr promoter (-403 to +16)]”, the binding result is reported as “binds”.
